Pooled drug test results. Numbers come from NIAID ChemDB, via PubChem.

Common to all: growth or infection tests; species: Hepatitis B virus; endpoint: EC50

Neighbouring rows are from separate reports. Two numbers with a dash give a range or band. Blank or dashed fields: not listed here. ECn is the concentration giving n% inhibition of infection, replication or growth.

structure	strain or isolate	cell line	method	setting	result
Nc1ncnc2c1ncn2[C@@H]1C[C@@H](F)[C@H](CO)O1	-	2.2.15	-	-	>10 µM
Nc1ccn([C@@H]2C=C[C@H](CO)O2)c(=O)n1	-	HepG2.2.15	-	-	<0.1 µM
Nc1nc(=O)n([C@@H]2C[C@@H](F)[C@H](CO)O2)cc1F	-	2.2.15	-	-	4 µM
Nc1ccn([C@@H]2CS[C@H](CO)O2)c(=O)n1	-	HepAD38	PCR	-	0.02 µM
O=c1[nH]c(=O)n(C2OC(CO)CC2F)cc1I	-	2.2.15	-	-	>50 µM
Nc1ccn([C@@H]2CS[C@H](CO)O2)c(=O)n1	WILD TYPE	Huh7	-	-	0.56 µM
COc1ccc(Sc2nc(N)nc3c2ncn3CCOCP(=O)(OCC(F)(F)F)OCC(F)(F)F)cc1	-	HepG2	-	-	0.012 µM
Cc1cn([C@@H]2C[C@H](O)[C@H](CO)O2)c(=O)[nH]c1=O	-	2.2.15	-	-	>10 µM
Nc1ncnc2c1ncn2[C@H]1CC[C@@H](CO)O1	-	HB611	-	-	100 µM
CC(C)(C)C(=O)SCCOP(=O)(OCCSC(=O)C(C)(C)C)OC[C@H]1CC[C@@H](n2cnc3c(N)ncnc32)O1	-	HepG2.2.15	-	-	0.08 µM
Nc1ccn([C@@H]2CS[C@H](CO)O2)c(=O)n1	WILD TYPE	HepG2	-	-	0.01 µM
Nc1nc(N)c(C=O)c(OCCOCP(=O)(O)O)n1	-	HepAD38	-	-	6 µg/mL
Nc1nc(N)c(Br)c(OCCOCP(=O)(O)O)n1	-	HepAD38	PCR	-	8.7 µM
Nc1ccn([C@@H]2C=C(F)[C@H](CO)O2)c(=O)n1	RTM204	HepAD38	-	-	<0.22 µM
CC(C)N=C1NC2=C(CCN(C(=O)c3ccc(Br)c(Cl)c3)C2)S(=O)(=O)N1c1ccccc1	Genotype D	HepG2.117	PCR	-	0.1–1 µM
COc1cc(C=O)cc(OC)c1O	-	HepG2.2.15	ELISA / antigen	-	763 µM
CC(C)CC1=NC2=C(CCN(C(=O)c3ccc(Br)c(Cl)c3)C2)S(=O)(=O)N1Cc1ccccc1	Genotype D	HepG2.117	PCR	-	>1 µM
CC(c1ccc(O)c(O)c1)N1C=NC2C(N)=NC=NC21	-	HepG2.2.15	ELISA / antigen	-	527 µM
Nc1cc(OCCOCP(=O)(O)O)ncn1	-	HEPAD79	PCR	-	80 µM
CC[C@H]1OC(O[C@@H]2[C@@H]3[C@](C)(CC[C@H]2C(C)C)[C@H](O)CC[C@]3(C)O)[C@H](O)[C@@H](O)[C@@H]1O	-	HepG2.2.15	PCR	-	12.01 µM
Nc1ccn([C@@H]2C[C@@H](O)[C@H](CO)O2)c(=O)n1	-	2.2.15	-	-	0.1 µM
O=C(O)c1ccccc1O	-	HepG2.2.15	ELISA / antigen	-	4650 µM
C[C@@H](COc1cc(N)nc(N)n1)OCP(=O)(O)O	-	HEPAD79	-	-	~100 µg/mL
Nc1nc(N)c2ncn(CC(CF)OCP(=O)(O)O)c2n1	-	HB611	-	-	100 µM
Nc1ncnc2c1ncn2CCOCP(=O)(O)O	-	HEPAD79	PCR	-	0.1 µM
COc1ccc(Cn2c(=O)c3c(n4ncc(Br)c24)CN(C(=O)OC(C)(C)C)CC3)cc1	-	HepG2.117	PCR	-	0.1–0.5 µM
Nc1nc(=O)n([C@@H]2C=C(F)[C@H](CO)O2)cc1F	RTM204	HEPAD79	-	-	<3.1 µM
Nc1ncnc2c1ncn2CCOCP(=O)(O)O	-	HepG2	PCR	-	169 µM
C=C(CCC=C(C)C)[C@H]1CC[C@]2(C)[C@@H]1[C@H](O)C[C@@H]1[C@@]3(C)CC[C@H](O)C(C)(C)[C@@H]3[C@@H](OC3OC(CO)C(O)C(O)C3OC3OC(C)C(O)C(O)C3O)C[C@]12C	-	HepG2.2.15	PCR	2 d	5.1 µM
Nc1nc(=O)n([C@@H]2CS[C@H](CO)O2)cc1F	-	Hep2.2.15	-	-	0.038 µM
Nc1nc(N)c(Br)c(OCCOCP(=O)(O)O)n1	-	HepAD38	-	-	3 µg/mL
CC1=C(O)C(=O)C=C2C1=CC=C1[C@@]2(C)CC[C@@]2(C)[C@@H]3C[C@](C)(C(=O)OCc4ccc([N+](=O)[O-])cc4)CC[C@]3(C)CC[C@]12C	-	HepG2 2.2.15	ELISA / antigen	-	15.1 µM
Cc1cn([C@@H]2C=C[C@H](CO)O2)c(=O)[nH]c1=O	-	2.2.15	-	-	>10 µM
Nc1nc2c(ncn2C=C2CC2CO)c(=O)[nH]1	-	HEPAD79	-	-	>100 µg/mL
Nc1ccn([C@@H]2CS[C@H](CO)O2)c(=O)n1	DUAL	-	-	-	>50 µM
COc1cc2ccc(=O)oc2cc1OC	-	HepG2.2.15	PCR	-	206 µM
CNc1ncnc2c1ncn2[C@@H]1O[C@@H](CO)C[C@H]1F	-	2.2.15	-	-	>10 µM
Cc1cn([C@@H]2CC[C@H](CO)O2)c(=O)[nH]c1=O	-	HepG2.2.15	-	-	>10 µM
Nc1ncnc2c1ncn2CCOCP(=O)(O)O	-	HEPAD79	-	-	0.14 µg/mL
Nc1nc(OCCOCP(=O)(O)O)cc(=O)[nH]1	-	HEPAD79	PCR	-	0.9 µM
CC1=C(O)C(=O)C=C2C1=CC=C1[C@@]2(C)CC[C@@]2(C)[C@@H]3C[C@](C)(C(=O)N4CCCC4)CC[C@]3(C)CC[C@]12C	-	HepG2 2.2.15	ELISA / antigen	-	24.1 µM
COc1ccc(N2C(=NC(C)C)NC3=C(CCN(C(=O)c4ccc(Br)c(Cl)c4)C3)S2(=O)=O)c(Cl)c1	Genotype D	HepG2.117 cells	PCR	-	0.1–1 µM
Nc1nc2c(ncn2[C@@H]2C=C[C@H](CO)CC2)c(=O)[nH]1	-	HEPAD79	-	-	3 µg/mL
CNC(=O)[C@]1(C)CC[C@]2(C)CC[C@]3(C)C4=CC=C5C(=CC(=O)C(O)=C5C)[C@]4(C)CC[C@@]3(C)[C@@H]2C1	-	HepG2 2.2.15	ELISA / antigen	-	18.4 µM
Cc1c(C(=O)O)cc2ccc3c(c2c1-c1ccc2c(c1)OCO2)OCO3	-	HepG2	-	-	>10 µM
Nc1nc(=O)n([C@H]2O[C@@H](CO)C[C@H]2F)cc1F	-	2.2.15	-	-	>10 µM
Cc1cn(C2CC=C(C(=O)O)O2)c(=O)[nH]c1=O	-	HepG2	replicon	-	10 µg/mL
Nc1nccc2c1ncn2CCOCCP(=O)(O)O	-	HB611	-	-	200 µM
Nc1ncnc2c1ncn2[C@H]1CC[C@@H](CO)O1	-	HB611	-	-	14.2 µg/mL
Nc1nc(=O)n([C@@H]2CC[C@H](CO)O2)cc1F	-	2.2.15	-	-	0.1 µM
Nc1ccn(C[C@@H](CO)OCP(=O)(O)O)c(=O)n1	-	HB611	-	-	9 µg/mL
Nc1nc(N)c(C=O)c(OCCOCP(=O)(O)O)n1	-	HepAD38	PCR	-	21 µM
C[C@H](Cn1cnc2c(N)ncnc21)OCP(=O)(O)O	-	HEPAD79	-	-	0.05 µg/mL
Nc1cc(OCCOCP(=O)(O)O)nc(N)n1	-	HEPAD79	-	-	0.003 µg/mL
Nc1ncnc2c1ncn2CCOCP(=O)(O)O	WILD TYPE	-	-	-	3.9 µM
O=c1[nH]c(=O)n([C@@H]2O[C@@H](CO)C[C@H]2F)cc1Br	-	2.2.15	-	-	>100 µM
Nc1nc(N)c2ncn(CCOCP(=O)(O)O)c2n1	-	HB611	-	-	0.02 µg/mL
O=c1[nH]cnc2c1ncn2[C@H]1O[C@@H](CO)C[C@H]1F	-	2.2.15	-	-	>10 µM
Nc1ncnc2c1ncn2CCOCCP(=O)(O)O	-	HB611	-	-	>400 µM
Nc1nc(=O)n([C@@H]2CC[C@H](CO)O2)cc1F	-	2.2.15	-	-	10 µM
CCCNC(=O)[C@]1(C)CC[C@]2(C)CC[C@]3(C)C4=CC=C5C(=CC(=O)C(O)=C5C)[C@]4(C)CC[C@@]3(C)[C@@H]2C1	-	HepG2 2.2.15	ELISA / antigen	-	29.7 µM
Nc1nc(=O)n([C@@H]2C[C@@H](O)[C@H](CO)O2)cc1Cl	-	2.2.15	-	-	10 µM
O=c1ccc2ccc(O)cc2o1	-	HepG2.2.15	PCR	-	448 µM
COc1ccc2cc1Oc1ccc(cc1)C[C@H]1c3c(cc4c(c3Oc3cc5c(cc3OC)CCN(C)[C@@H]5C2)OCO4)CCN1C	-	HepG2	ELISA	-	2.14 µM
O=c1[nH]c(=O)n([C@@H]2O[C@@H](CO)C[C@H]2F)cc1Cl	-	2.2.15	-	-	>50 µM
[N-]=[N+]=N[C@@H]1C[C@@H](n2cc(F)c(N)nc2=O)O[C@H]1CO	-	2.2.15	-	-	0.11 µM
Nc1ncnc2c1ncn2[C@@H]1CC[C@H](CO)O1	-	2.2.15	-	-	5 µM
C[C@H](COc1cc(N)nc(N)n1)OCP(=O)(O)O	-	HEPAD79	-	-	3 µg/mL

Repeating the final 8 entries:

| structure | strain or isolate | cell line | method | setting | result |
|---|---|---|---|---|---|
| CCCNC(=O)[C@]1(C)CC[C@]2(C)CC[C@]3(C)C4=CC=C5C(=CC(=O)C(O)=C5C)[C@]4(C)CC[C@@]3(C)[C@@H]2C1 | - | HepG2 2.2.15 | ELISA / antigen | - | 29.7 µM |
| Nc1nc(=O)n([C@@H]2C[C@@H](O)[C@H](CO)O2)cc1Cl | - | 2.2.15 | - | - | 10 µM |
| O=c1ccc2ccc(O)cc2o1 | - | HepG2.2.15 | PCR | - | 448 µM |
| COc1ccc2cc1Oc1ccc(cc1)C[C@H]1c3c(cc4c(c3Oc3cc5c(cc3OC)CCN(C)[C@@H]5C2)OCO4)CCN1C | - | HepG2 | ELISA | - | 2.14 µM |
| O=c1[nH]c(=O)n([C@@H]2O[C@@H](CO)C[C@H]2F)cc1Cl | - | 2.2.15 | - | - | >50 µM |
| [N-]=[N+]=N[C@@H]1C[C@@H](n2cc(F)c(N)nc2=O)O[C@H]1CO | - | 2.2.15 | - | - | 0.11 µM |
| Nc1ncnc2c1ncn2[C@@H]1CC[C@H](CO)O1 | - | 2.2.15 | - | - | 5 µM |
| C[C@H](COc1cc(N)nc(N)n1)OCP(=O)(O)O | - | HEPAD79 | - | - | 3 µg/mL |